{"source": "paper PMC11110727", "about": "“Exploiting thiol-functionalized benzosiloxaboroles for achieving diverse substitution patterns – synthesis, characterization and biological evaluation of promising antibacterial agents” (RSC Medicinal Chemistry, 2024)", "key": {"[1]": {"system": "S. aureus ATCC 43300 MRSA", "test": "Selectivity index SI = IC50/MIC", "type": "cell-based, Staphylococcus aureus", "conditions": "SI = IC50 (MRC-5)/MIC"}, "[2]": {"system": "S. aureus MRSA clinical strains (NMI)", "test": "Selectivity index SI = IC50/MIC", "type": "cell-based, Staphylococcus aureus", "conditions": "SI = IC50 (MRC-5)/MIC, from lowest and highest MIC values"}}}
{"compound": "CC(=O)NC[C@H]1CN(c2ccc(N3CCOCC3)c(F)c2)C(=O)O1", "note": "[LIN, linezolid, reference compound]", "values": [{"measurement": "SI for S. aureus ATCC 43300 MRSA", "setting": "[1]", "result": ">200"}, {"measurement": "SI range for S. aureus MRSA clinical strains (NMI)", "setting": "[2]", "result": ">400"}]}
